Results of unrelated studies side by side (data: NIAID ChemDB).

Shared fields: host cell toxicity; cells: TZM-bl; read by: MTT; read-out: CC50

Rows are shuffled and stem from different studies.

{"smiles": "Clc1cc(/C=C/c2cccs2)nc2ccccc12", "result": "52.62 µM"}
{"smiles": "Cc1ccc(C2(CCl)OC(=O)c3ccccc32)cc1", "result": "293 µM"}
{"smiles": "Fc1ccc(/C=C/c2cc(Cl)c3ccccc3n2)c(F)c1", "result": "72.92 µM"}
{"smiles": "CCOC(=O)C(O)(c1c[nH]c2cc(F)ccc12)C(F)(F)F", "result": "111 µM"}
{"smiles": "CCOC(=O)C(N)(c1c[nH]c2ccc(C)cc12)C(F)(F)F", "result": ">133 µM"}
{"smiles": "CC(C)[C@H](N)C(=O)O.[Na+]", "result": "49.29 µM"}
{"smiles": "CCCCCn1cc(C(N)(C(=O)OCC)C(F)(F)F)c2ccccc21", "result": ">112 µM"}
{"smiles": "CC(C)Nc1cccnc1N1CCN(C(=O)c2cc3cc(NS(C)(=O)=O)ccc3[nH]2)CC1", "result": "72.6 µM"}
{"smiles": "CCC(Cl)C1(c2ccc(F)cc2)OC(=O)c2ccccc21", "result": "376 µM"}
{"smiles": "Cc1cc(C)cc(-n2ncc3c(=O)[nH]c(C)cc32)c1", "result": "679 µM"}
{"smiles": "CCOC(=O)C(O)(c1c[nH]c2cccc(O)c12)C(F)(F)F", "result": "808 µM"}
{"smiles": "CCOC(=O)C(N)(C1=CNC2C=C(Cl)C=CC12)C(F)(F)F", "result": ">125 µM"}
{"smiles": "Cc1cc2c(C(C)C)c(C)c(O)c(C=O)c2c(O)c1-c1c(C)cc2c(C(C)C)c(O)c(O)c(C=O)c2c1O", "result": "9.74 µM"}
{"smiles": "CCOC(=O)C(N)(c1cn(C)c2ccccc12)C(F)(F)F", "result": ">133 µM"}
{"smiles": "COc1cc(/C=C/c2cc(Cl)c3ccccc3n2)cc(OC)c1", "result": "66 µM"}
{"smiles": "Cc1cc2c(C(C)C)c(O)c(O)c(C=O)c2c(O)c1-c1c(C)cc2c(C(C)C)c(O)c(O)c(C=O)c2c1O", "result": "9.74 µM"}
{"smiles": "CCOC(=O)C(Nc1ccc(OC)cc1)(c1c[nH]c2ccccc12)C(F)(F)F", "result": "40.8 µM"}
{"smiles": "C[C@H](N)C(=O)O.[Na+]", "result": "64.1 µM"}
{"smiles": "Clc1cc(/C=C/c2ccco2)nc2ccccc12", "result": "103 µM"}
{"smiles": "COC(=O)C(N)(c1c[nH]c2ccc(C)cc12)C(F)(F)F", "result": ">140 µM"}
{"smiles": "Clc1cc(/C=C/c2ccc(-c3ccccc3)cc2)nc2ccccc12", "result": "78.11 µM"}
{"smiles": "COC(=O)C(N)(c1c[nH]c2ccc(Cl)cc12)C(F)(F)F", "result": "130 µM"}
{"smiles": "Cc1ccc([C@@]2(CCl)OC(=O)c3ccccc32)cc1", "result": "146.7 µM"}
{"smiles": "COC(=O)C(N)(c1c(C)[nH]c2ccccc12)C(F)(F)F", "result": ">140 µM"}
{"smiles": "CCOC(=O)C(O)(c1c(C)[nH]c2ccccc12)C(F)(F)F", "result": "243 µM"}

The first 2 rows once more:

smiles	result
Clc1cc(/C=C/c2cccs2)nc2ccccc12	52.62 µM
Cc1ccc(C2(CCl)OC(=O)c3ccccc32)cc1	293 µM

CCn is the concentration with n% toxicity to the cells.